Patent US20190211024A1 (priority 2016, published 2019)

Test system: A(H1N1) A/Puerto Rico/8/34
Experiment: Antiviral MTT test, reduction of infectious viral titre
Format: cell-based
Conditions: summary of Table 2, both influenza A strains

Sodium salt of 2-methylthio-4-pivaloyloxymethyl-6-(2+-amino-2′-carboxyethylthio)-1,2,4triazolo[5,1-c]1,2,4-triazine-7-one hydrate
Antiviral activity in vitro (in words): significant enhancement of its antiviral activity
